Values of other authors in paper PMC9552964.
pKd: −log10 of the molar value.

Molecular target: HIV-1 capsid (Human immunodeficiency virus 1) (UniProt O93182)
Assay: TIRF microscopy

In the case of Cyclophilin A (from UniProt P62937), the pKd is given as 5.00.
